Results deposited as PubChem BioAssay AID504761 (Drosophila RNAi Screening Center, 2011).

Purpose: 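Insect host genes that dengue virus relies on to spread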 (primary screen)
Cells: D.Mel-2 cells from Drosophila
Knock-down reagent: long dsRNA against Drosophila genes
Treatment: infection with dengue virus type 2; dose and infection time not stated
Measured: 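Per well on two replicate plates, imaging gave the percent of cells positive for viral envelope protein, ranked by infection, and a nuclear count of cells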
Reading the numbers: infection score: higher = more virus-infected cells; cell count: higher = more cells in the well
Rule for the call: 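Very low infection ranking in both replicate wells (chance probability at most 0.065), then a retest showing infection dropped 1.5-fold or more at p below 0.05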
Meaning of the calls: active = confirmed: knock-down lowers infection; inactive = not picked or not confirmed
In all, the deposit lists about 22,000 reagents; shown is a random part of those that have a named target and a result. In the full data, 116 (0.52%) were called active. 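Calls depend on retest data that are not deposited; infection was ranked per plate without normalising between plates; the unit of the infection score is not given.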 Raw values vary from plate to plate and are shown uncorrected. Names joined by + are all predicted targets of the reagent. Not given: the amount of reagent, the time to read-out.

gene knocked down,dsRNA,"infection score, replicate 1","infection score, replicate 2","cell count, replicate 1","cell count, replicate 2",activity call
CG14540,DRSC14884,3.17,3.72,6658,6768,inactive
CG14540,DRSC25080,1.08,2.35,6844,6719,inactive
Pli,DRSC16792,3.28,2.91,5796,6502,inactive
CG18081,DRSC10294,0.44,1.4,5895,6155,inactive
CG18081,DRSC25758,2.77,2.07,6425,6028,inactive
tey,DRSC11042,22.7,7.18,5984,6033,inactive
tey,DRSC21709,2.9,5.19,6317,6783,inactive
tey,DRSC26114,8.99,4.94,5917,5853,inactive
Ank,DRSC17127,17.3,4.93,6663,6488,inactive
Ank,DRSC29865,26.4,8.14,5297,6501,inactive
resilin,DRSC05627,0.54,1.2,6279,6095,inactive
resilin,DRSC06595,10.1,9.16,7203,6946,inactive
CG17658,DRSC04292,22.1,,5538,332,inactive
fw,DRSC20334,6.28,3.78,6386,7009,inactive
fw,DRSC27087,3.35,8.5,6473,6788,inactive
CG14645,DRSC12231,6.86,23.9,6455,4528,inactive
Tsp68C,DRSC09295,1.63,0.82,6197,6492,inactive
Tsp68C,DRSC28942,,0.24,247,411,inactive
Jhbp4,DRSC14222,2.2,10.3,6625,6306,inactive
gudu,DRSC02820,17.6,0.58,5775,693,inactive
CG15465,DRSC18048,5.8,11.7,6206,6077,inactive
CG15465,DRSC26250,4.46,3.68,5873,6107,inactive
CG34041,DRSC22276,4.88,29.3,5693,4901,inactive
CG34041,DRSC30023,2.19,2.48,6407,6320,inactive
CG13460,DRSC10007,1.93,2.55,6372,6618,inactive
cnir,DRSC00499,6.32,3.68,6112,6716,inactive
cnir,DRSC26787,2.16,1.75,6755,6636,active
wrapper,DRSC04723,24.3,16.8,6044,5873,inactive
Np,DRSC06089,,16.5,421,5574,inactive
Np,DRSC24989,8.37,10.7,5865,6053,inactive
shep,DRSC09765,8.35,9.51,6325,5597,inactive
shep,DRSC09771,5.72,4.51,7058,7159,inactive
shep,DRSC26847,3.95,3,6588,6376,inactive
CG4004,DRSC19791,1.57,4.85,6295,6347,inactive
CG4004,DRSC19882,1.07,4.87,374,6018,inactive
CG4004,DRSC26904,11.3,3.25,6706,6803,inactive
net,DRSC00309,3.18,1.44,6443,7275,inactive
CG14142,DRSC10145,4.83,5.57,6175,6426,inactive
CG14142,DRSC26658,5.1,1.68,6270,6122,inactive
CG16890,DRSC01890,40,21.7,6179,5601,inactive
CG16890,DRSC29892,14.2,4.66,6138,6029,inactive
CG17574,DRSC06681,6.24,12.5,6761,5756,inactive
CG16704,DRSC00475,2.66,7.49,6583,6426,inactive
ATPsynB,DRSC09659,20.5,15.6,4513,4331,inactive
CG42816 + CG42815,DRSC11230,2.28,8.74,6136,5709,inactive
RpL34b,DRSC16475,9.25,30.4,7026,4513,inactive
PGRP-SC1b,DRSC07215,5.98,10.4,6838,6907,inactive
CG31780 + CG18477,DRSC26122,12.3,2.83,5882,5863,inactive

Continued, starting with the last 4 of the part before.
gene knocked down,dsRNA,"infection score, replicate 1","infection score, replicate 2","cell count, replicate 1","cell count, replicate 2",activity call
CG42816 + CG42815,DRSC11230,2.28,8.74,6136,5709,inactive
RpL34b,DRSC16475,9.25,30.4,7026,4513,inactive
PGRP-SC1b,DRSC07215,5.98,10.4,6838,6907,inactive
CG31780 + CG18477,DRSC26122,12.3,2.83,5882,5863,inactive
Khc-73,DRSC07449,16.8,14.9,5311,6402,inactive
Khc-73,DRSC26819,12.3,17.6,6600,6678,inactive
CG2680,DRSC18466,5.66,3.74,5901,6230,inactive
CG9393,DRSC16486,4.16,6.28,6964,7009,inactive
betaTub60D,DRSC04673,2.17,5.61,6086,6331,inactive
betaTub60D,DRSC22218,1.18,1.68,7183,7308,inactive
betaTub60D,DRSC23872,6.26,7.56,7044,5911,inactive
Pect,DRSC02867,2.78,9.71,6582,6476,inactive
Pect,DRSC02868,5.13,3.96,4564,4802,inactive
CG10650,DRSC02085,9.96,23.6,6347,4810,inactive
Mst98Ca,DRSC16749,3.57,2.17,6477,7139,inactive
Or83a,DRSC12357,6.49,5.03,6733,6700,inactive
E(spl)m7-HLH,DRSC16696,14.3,1.49,5917,6774,inactive
E(spl)m7-HLH,DRSC29451,17.8,11.2,5486,5544,inactive
Mcr,DRSC03366,5.02,2.65,6034,6833,inactive
CG16790,DRSC15156,9.78,14.1,6276,6065,inactive
CG33475,DRSC22943,2.23,7.35,5926,6858,inactive
CG3939,DRSC18498,1,1.14,6292,6235,inactive
CG13442,DRSC06402,4.43,1.33,5736,6488,inactive
CG13442,DRSC25909,2.18,4.2,6369,6311,inactive
PXo,DRSC09734,6.74,11.5,2255,2967,inactive
SppL,DRSC15228,0.67,3.76,6529,6669,inactive
CG33223 + CG32713,DRSC28559,17.5,12.5,3874,5168,inactive
CG4101,DRSC10400,3.78,6.1,6211,6151,inactive
Tpst,DRSC18989,0.48,,6502,6221,inactive
Tpst,DRSC19696,11.2,9.15,6336,6692,inactive
Tpst,DRSC19723,4.56,8.69,6573,6606,inactive
Tpst,DRSC24990,17.4,12.8,4568,4206,inactive
Tpst,DRSC25122,4.7,11.6,6958,6217,inactive
Tpst,DRSC25422,4.84,17.1,5802,4398,inactive
